Publication PMC7798916 (National Science Review, 2020)

Molecular target: SARS-CoV RBD (SARS-CoV (NC_004718.3, Tor2), UniProt P59594)
Assay: BLI
Conditions: both partners purified

B1: HB27 (humanized monoclonal antibody, IgG) (antibody, V domains shown)
VH: VKLVESGGGLVKPGGSLRLSCAASGFTFTNYGMSWVRQAPGKRLEWVAEISSGGSYTYYPDTVTGRFTISRDNAKNTLYLQMNSLRAEDTAVYYCARFRYGGGGTVDYWGQGTLVTVSS
VL: IVLTQSPTLSLSPGERATLSCRASESVDNYGISFMNWFQQKPGQAPRLLIYAASNQGSGIPSRFSGSGSGTDFSLTISSLEPEDFAVYFCQQSKEVPRIFGQGTKVEIL
notes: also called HB27 IgG; source: CHO cell line
Question: Does B1 bind?
Answer: no binding
